Pooled drug test results. Numbers come from NIAID ChemDB, via PubChem.

Shared fields: tests in culture; agent: Mycobacterium tuberculosis

Blank or dashed fields: not listed here. Conditions beyond the fields shown may differ between rows. ECn: concentration that inhibits the pathogen or its effect by n%. Percent inhibition refers to the dose given; in toxicity tests it is the harm to the cells. MIC bound: limit read from a one-dose screen. MIC50, MIC90 and the like: level of inhibition, or share of isolates inhibited.

compound,strain,mutations,cells,read by,conditions,read-out,dose,value
Fc1ccc(CCNCCNCCCc2ccccc2)cc1,,,,,,MIC,,12.5 µM
NNC(=O)c1ccncc1,MTB17 (INH RIF-R),,,,,MIC,,>4 µg/mL
O=C1c2ccccc2C(=O)c2sc(Nc3cccc(Cl)c3)nc21,H37Rv,,VERO,,,MIC,,0.8 µg/mL
CCOC(=O)c1ccc2nc(-c3ccc4c(c3)OCO4)[nH]c2c1,H37Rv,,,resazurin / fluorescence,,EC50,,>100 µM
CN[C@@H]1[C@H](O[C@H]2[C@H](O[C@H]3[C@H](O)[C@@H](O)[C@H](N=C(N)N)[C@@H](O)[C@@H]3N=C(N)N)O[C@@H](C)[C@]2(O)C=O)O[C@@H](CO)[C@H](O)[C@H]1O,MTB13 (INH-R),,,,,MIC,,1.25 µg/mL
CN(CCOc1ccc(OC(F)(F)F)cc1)C1CCN(c2ccc(OC[C@@]3(C)Cn4cc([N+](=O)[O-])nc4O3)cc2)CC1,H37Rv,,,,,MIC,,0.024 µg/mL
O=C(COc1cnccn1)N/N=c1\scc(-c2ccc(Cl)cc2Cl)n1-c1ccc(Cl)cc1,H37Rv,,,,,MIC,,13 µg/mL
CCOc1ccccc1CNCCNCc1ccc(OC(F)(F)F)cc1,,,,,,MIC,,50 µM
CCOc1ccc(-n2c(-c3ccc(O)cc3)cs/c2=N\NC(=O)COc2cnccn2)cc1,H37Rv,,,,,MIC,,15 µg/mL
CO[C@H]1/C=C/O[C@@]2(C)Oc3c(C)c(O)c4c(O)c(c(/C=N/N5CCN(C)CC5)c(O)c4c3C2=O)NC(=O)/C(C)=C\C=C\[C@H](C)[C@H](O)[C@@H](C)[C@@H](O)[C@@H](C)[C@H](OC(C)=O)[C@@H]1C,XDR,,,resazurin,,MIC,,>100 µg/mL
CCN(CC)C(=S)SCCOCCSC(=S)N(CC)CC,H37Rv,,,BACTEC,,MIC bound,,≤128 µg/mL
O=C(Oc1cc(Cl)ccc1C(=O)Nc1ccc(Cl)cc1)c1cnccn1,H37Rv 331/88,,,,21 d,MIC,,4 µM
O=C(O)c1cn(C2CC2)c2cc(N3CCN(C/C(=N/O)c4ccccc4)CC3)c(F)cc2c1=O,H37Rv,,VERO,,,MIC,,1.56 µg/mL
C[C@H]1COc2c(N3CCN(C)CC3)c(F)cc3c(=O)c(C(=O)O)cn1c23,206 isolates (susceptible),,,,,MIC90,,1 µg/mL
Cc1ccc(NC(=O)COc2cc(Cl)c(Cl)cc2Cl)cc1[N+](=O)[O-],H37Rv,,,BACTEC,,inhibition,12.5 µg/mL,0%
CCCCN1C(=O)CS/C1=N\NC(=O)COc1cnccn1,H37Rv,,,,,MIC,,159 µg/mL
O=C(Oc1ccc(Cl)cc1C(=O)Nc1ccc(C(F)(F)F)cc1)c1cnccn1,multidrug resistant 234/2005,,,,21 d,MIC,,0.25 µM
CC(=O)NC[C@H]1CN(c2ccc(N3CCN(c4ccc([N+](=O)[O-])s4)CC3)c(F)c2)C(=O)O1,PC 4793,,,,,MIC,,>32 µg/mL
CC1COc2c(N3CCN(C)CC3)c(F)cc3c(=O)c(C(=O)O)cn1c23,SMI 20,,,BACTEC,,MIC,,0.5 µg/mL
CCCCNC(=S)NNC(=O)COc1cnccn1,H37Rv,,,,,MIC,,56 µg/mL
COc1cc2c3c(cc4cc5c(cc4c3c1OC)OCO5)N(C=O)CC2,H37Rv,,,resazurin,,MIC,,>50 µg/mL
CC(=O)Oc1ccccc1C(=O)Nc1ncc([N+](=O)[O-])s1,T spoligotype 53,,,visual reading,,MIC,,17.3 µg/mL
CO[C@H]1/C=C/O[C@@]2(C)Oc3c(C)c(O)c4c(=O)c(c5oc6cc(N7CCN(CC(C)C)CC7)cc(=O)c6nc5c4c3=C2O)NC(=O)/C(C)=C\C=C\[C@H](C)[C@H](O)[C@@H](C)[C@@H](O)[C@@H](C)[C@H](OC(C)=O)[C@@H]1C,TN1811,,,,,MIC,,>32 µg/mL
CO/C(=N\N=C\c1ccc(OC)c(F)c1)c1ccncc1,16PI,,,,,MIC,,>20 µg/mL
CCOC(=O)c1ccc2nc(-c3ccc(O)c(OC)c3)[nH]c2c1,H37Rv,,,resazurin / fluorescence,,EC50,,83.66 µM
CCC(=O)OC[n+]1ccc2c(C)c3[nH]c4ccc(OC)cc4c3c(C)c2c1,H37Rv,,VERO,resazurin,,MIC,,0.78 µg/mL
CCCCCCCCCCCNCCNC1CCCCCCC1,,,,,,MIC,,12.5 µM
COc1cc(N)c2c(c1)SCCC(=O)N2,H37Rv,,,BACTEC,,MIC bound,,>12.5 µg/mL
O=C(Oc1ccc(Cl)cc1C(=O)Nc1cccc(C(F)(F)F)c1)c1cnccn1,multidrug resistant 9449/2006,,,,21 d,MIC,,2 µM
C[C@]1(COc2ccc(N3CCC(OCC4CCCCC4)CC3)cc2)Cn2cc([N+](=O)[O-])nc2O1,H37Rv,,,,,MIC,,0.012 µg/mL
NC(=O)c1cnccn1,Isolate 98-30,,,,,MIC,,900 µg/mL
Cc1cc(-c2cc3c(cc2F)c(=O)c(C(=O)O)cn3C2CC2)cc(C)n1,1024-8,,,,,MIC,,2 µg/mL
COc1ccc(CCC2CCc3ccccc3N2C)cc1OC,MT9,,,,,MIC,,>100 µg/mL
COc1ccc(/C(C)=N/NC(=O)c2ccncc2)cc1OC,16PI,,,,,MIC,,>20 µg/mL
C[C@H]1COc2c(N3CCN(C)CC3)c(F)cc3c(=O)c(C(=O)O)cn1c23,Clinical isolate BRF 14,INH resistant,,resazurin,,MIC,,0.25 µg/mL
CC12CCC(NC(=O)C3CCCN3C(=O)OCc3ccccc3)CC1CCC1C2CCC2(C)C(NC(=O)C3CCCN3C(=O)OCc3ccccc3)CCC12,H37Rv,,,BACTEC,,MIC bound,,>12.5 µg/mL
COc1ccccc1CCNCCNCCC(c1ccccc1)c1ccccc1,,,,,,MIC,,12.5 µM
O=C1NN(C2=NNC3(C(=O)N2)c2ccccc2-c2ccccc23)C(c2ccccc2)=N/C1=C\c1ccc(Cl)cc1,H37Rv,,,BACTEC,,inhibition,12.5 µg/mL,0%
CCn1cc(C(=O)O)c(=O)c2cc(F)c(N3CCN(C/C(=N/O)c4ccc(OC)cc4)CC3)cc21,H37Rv,,,,,EC50,,>6.25 µg/mL
C1CCCC(NCCNC2C3CC4CC(C3)CC2C4)CCC1,,,,,,MIC,,25 µM
COc1cc2oc(=O)ccc2cc1C(=O)CC(C)C,H37Rv,,,BACTEC,,MIC,,≥128 µg/mL
CCOC(=O)c1ccc2c(c1)nc(-c1ccc(O)c(OC)c1)n2CCN1CCCOC1,H37Rv,,,resazurin / fluorescence,,EC50,,38.08 µM
COc1ccc(/C(CN2CCN(c3cc4c(cc3F)c(=O)c(C(=O)O)cn4C3CC3)CC2)=N\O)cc1,H37Rv,,,,,MIC,,>6.25 µg/mL
NCCO/C=C/[C@H](N)C(=O)O,H37Rv,,,BACTEC,,MIC bound,,>12.5 µg/mL
CCCCCc1cc(OC)c2ccccc2n1,MT3,,,,,MIC,,42 µg/mL
CO[C@H]1/C=C/O[C@@]2(C)Oc3c(C)c(O)c4c(O)c(c(/C=N/N5CCN(C)CC5)c(O)c4c3C2=O)NC(=O)/C(C)=C\C=C\[C@H](C)[C@H](O)[C@@H](C)[C@@H](O)[C@@H](C)[C@H](OC(C)=O)[C@@H]1C,H37Rv,,,,,MIC,,<0.19 µM
COc1ccc(C2C(Cl)C(=O)N2NC(=O)Cc2ccccc2)cc1,H37Rv,,,BACTEC,,inhibition,12.5 µg/mL,58%
CCOC(=O)c1ccc2nc(C3C(c4ccccc4)C(=O)C3c3ccc(OC)cc3)[nH]c2c1,H37Rv,,,resazurin / fluorescence,,EC50,,>100 µM
C[C@H](O)[C@H]1/C=C/C=C\C(=O)O[C@@H]2C[C@H]3O[C@@H]4[C@@H]5O[C@]5(C)CC[C@]4(COC(=O)[C@H]4O[C@]4(C)[C@@H](O)CO1)[C@]2(C)[C@]31CO1,H37Rv,,,BACTEC,,MIC bound,,>12.5 µg/mL
NNC(=O)c1ccncc1,Isolate R1,,,,,MIC,,0.031 µg/mL
CCOC(=O)c1ccc2nc(-c3cncc(-c4ccc(F)cc4)c3)[nH]c2c1,H37Rv,,,resazurin / fluorescence,,EC90,,>100 µM
CCCCCCCCCCCNCCNC(C)CCc1ccccc1,,,,,,MIC,,25 µM
COc1cc(OC)c2cc([N+](=O)[O-])c3ccc(=O)oc3c2c1,MTY147,,,resazurin,,MIC,,50 µg/mL
C/C(CC(=O)NCCc1ccccc1)=N\NC(=O)C[n+]1ccccc1.[Cl-],H37Rv,,,BACTEC,,inhibition,12.5 µg/mL,1%
CCOC(=O)c1ccc2nc(-c3ccc(C(=O)O)cc3)[nH]c2c1,H37Rv,,,resazurin / fluorescence,,EC50,,>100 µM
CO[C@H]1/C=C/O[C@@]2(C)Oc3c(C)c(O)c4c(O)c(c(/C=N/N5CCN(C)CC5)c(O)c4c3C2=O)NC(=O)/C(C)=C\C=C\[C@H](C)[C@H](O)[C@@H](C)[C@@H](O)[C@@H](C)[C@H](OC(C)=O)[C@@H]1C,FJ05060,Clinically resistant strain,,resazurin,,MIC,,0.5 µg/mL
COc1ccc(CCN2C(=O)C(=O)N(C(C)C)C2=O)cc1OC,H37Rv,,,BACTEC,,MIC bound,,>12.5 µg/mL
NC[C@@H]1O[C@H](O[C@H]2[C@@H](O)[C@H](O[C@@H]3[C@@H](O)[C@H](N)C[C@H](N)[C@H]3O[C@H]3O[C@H](CO)[C@@H](O)C[C@H]3N)O[C@@H]2CO)[C@H](N)[C@@H](O)[C@@H]1O[C@H]1O[C@H](CO)[C@@H](O)[C@H](O)[C@@H]1O,H37Rv (kanamycin-resistant),,,,,EC50,,≥50 µg/mL
O=C(Oc1ccc(Br)cc1C(=O)Nc1ccc(C(F)(F)F)cc1)c1cnccn1,multidrug resistant Praha 1,,,,14 d,MIC,,0.125 µM
C[C@]1(COc2ccc(N3CCC(CCOCc4ccc(OC(F)(F)F)cc4)CC3)cc2)Cn2cc([N+](=O)[O-])nc2O1,H37Rv,,,,,MIC,,0.012 µg/mL
CCOC(=O)c1ccc2c(c1)nc(-c1cccc(-c3ccc(F)cc3)c1)n2CCN1CCCOC1,H37Rv,,,resazurin / fluorescence,,EC50,,>100 µM
CO[C@H]1/C=C/O[C@@]2(C)Oc3c(C)c(O)c4c(O)c(c(C5SCCS5)c(O)c4c3C2=O)NC(=O)/C(C)=C\C=C\[C@H](C)[C@@H]2OC(C)(C)O[C@@H]([C@@H](C)[C@H](OC(C)=O)[C@@H]1C)[C@@H]2C,H37Rv,,,BACTEC,,inhibition,12.5 µg/mL,100%
CO/N=C1\CN(c2nc3c(cc2F)c(=O)c(C(=O)O)cn3C2CC2)CC1CN,44 isolates (resistant),,,,,Mean MIC,,6.417 µg/mL
CC1CCCC(NCCNCc2ccc(C(F)(F)F)cc2)C1C,,,,,,MIC,,>50 µM
O=C(Oc1ccc(Cl)cc1C(=O)Nc1ccc(Cl)c(Cl)c1)c1cnccn1,multidrug resistant Praha 1,,,,21 d,MIC,,0.5 µM
O=c1cc(-c2ccccc2)[nH]c2[nH]n(-c3ccccc3)c(=O)c12,H37Rv,,,BACTEC,,inhibition,12.5 µg/mL,36%
O=C(Oc1cc(Cl)ccc1C(=O)Nc1ccc(C(F)(F)F)cc1)c1cnccn1,multidrug resistant Praha 1,,,,14 d,MIC,,0.125 µM
Nc1nc2[nH]c(=O)[nH]c2c(=O)[nH]1,H37Rv,,,BACTEC,,MIC bound,,>12.5 µg/mL
C[C@]1(COc2ccc(N3CCN(Cc4cc5cc(Cl)ccc5s4)CC3)cc2)Cn2cc([N+](=O)[O-])nc2O1,H37Rv,,,,,MIC,,0.006 µg/mL
CC(=O)OC1(C#N)CC2OC1C1C2N=NN1C(=O)OC(C)(C)C,H37Rv,,,BACTEC,,inhibition,12.5 µg/mL,10%
C/C(=N\NC(=O)c1ccncc1)c1ccc(Cl)c(Cl)c1,6 PI,,,,,MIC,,>20 µg/mL
CC(=O)C1=C(C(=O)O)[NH+]([O-])C2C=CC=CC2[NH+]1[O-],H37Rv,,,BACTEC,,MIC,,3.13 µg/mL
COc1ccc(/C(C)=N/NC(=O)c2ccncc2)cc1F,16PI,,,,,MIC,,>20 µg/mL
COc1cc(O)c2c(c1)C(=O)C1=C(C2=O)C(C)OC(C)C1O,H37Rv,,,BACTEC,,MIC,,12.5 µg/mL
O=C(COc1cnccn1)N/N=c1\scc(-c2ccc(F)cc2)n1-c1ccc(Cl)cc1Cl,H37Rv,,,,,MIC,,11 µg/mL
CCCCCCCCCCCC1=C(O)C(=O)C=C(O)C1=O,H37Rv,,,BACTEC,,MIC bound,,≤128 µg/mL
O=C(O)c1cn(C2CC2)c2cc(N3CCN(C/C(=N/O)c4ccc(F)cc4)CC3)c(F)cc2c1=O,H37Rv,,VERO,,,inhibition,6.25 µg/mL,98%

The last 5 rows once more:

COc1ccc(/C(C)=N/NC(=O)c2ccncc2)cc1F ; strain: 16PI ; read-out: MIC ; value: >20 µg/mL
COc1cc(O)c2c(c1)C(=O)C1=C(C2=O)C(C)OC(C)C1O ; strain: H37Rv ; read by: BACTEC ; read-out: MIC ; value: 12.5 µg/mL
O=C(COc1cnccn1)N/N=c1\scc(-c2ccc(F)cc2)n1-c1ccc(Cl)cc1Cl ; strain: H37Rv ; read-out: MIC ; value: 11 µg/mL
CCCCCCCCCCCC1=C(O)C(=O)C=C(O)C1=O ; strain: H37Rv ; read by: BACTEC ; read-out: MIC bound ; value: ≤128 µg/mL
O=C(O)c1cn(C2CC2)c2cc(N3CCN(C/C(=N/O)c4ccc(F)cc4)CC3)c(F)cc2c1=O ; strain: H37Rv ; cells: VERO ; read-out: inhibition ; dose: 6.25 µg/mL ; value: 98%